Measured values from several laboratories, pooled; numbers as filed in NIAID ChemDB.

Common to all: tests in culture; species: Cytomegalovirus; endpoint: EC50

ECn: concentration that inhibits the pathogen or its effect by n%. Blank or dashed fields: not listed here. Two numbers with a dash give a range or band. Neighbouring rows are from separate reports.

structure | strain | cell line | read by | value
CC(C)(C)[Si](C)(C)OC[C@H]1O[C@@H](n2ccc(=O)[nH]c2=O)[C@H](O[Si](C)(C)C(C)(C)C)[C@@]12O[C@H]2C(N)=O | - | MRC-5 | plaque count | >8 µM
CC(Cl)(c1ccccc1)S(=O)(=O)c1cccc[n+]1[O-] | - | HEL | cytopathic effect | 50 µg/mL
Nc1nc2c(ncn2[C@H]2C=C[C@@H](CO)CC2)c(=O)[nH]1 | - | - | - | 1–10 µM
Nc1ccn(C[C@@H](CO)OCP(=O)(O)O)c(=O)n1 | DAVIS | - | plaque count | 0.1 µg/mL
Cc1ccc(C)c(CS(=O)c2cccc[n+]2[O-])c1 | - | HEL | cytopathic effect | 28 µg/mL
Nc1ncnc2c1ncn2C[C@H]1COP(=O)(O)CO1 | AD169 | HEL | cytopathic effect | 0.7 µg/mL
CCCCCCCCCCCCCCCCCCOCCOP(=O)(O)CO[C@H](CO)Cn1ccc(N)nc1=O | GDGP53 | - | - | 0.02 µM
COc1cccnc1SCc1ccccc1 | - | HEL | cytopathic effect | >50 µg/mL
COC(=O)CC(SCCO)n1cc(C)c(=O)[nH]c1=O | - | HFF | cytopathic effect | >200 µM
Cc1ccc(C)c(C(c2ccccc2)S(=O)(=O)c2cccc[n+]2[O-])c1 | - | HEL | cytopathic effect | 20 µg/mL
Nc1nc2c(ncn2COC(CO)CO)c(=O)[nH]1 | 295 | MRC-5 | - | 8.1 µM
Nc1nc2c(ncn2COC(CO)CO)c(=O)[nH]1 | DAVIS | HEL | cytopathic effect | 1 µg/mL
O=S(=O)(Cc1ccccc1I)c1cccc[n+]1[O-] | - | HEL | cytopathic effect | >20 µg/mL
O=c1ccn([C@@H]2O[C@H](CO)[C@](O)(C(F)(F)F)[C@H]2O)c(=O)[nH]1 | AD169 | VERO | cytopathic effect | >50 µg/mL
COC(=O)c1cc2ccc3c(c2c(-c2ccc4c(c2)OCO4)c1C(=O)OC)OCO3 | - | - | - | 8.1 µM
COC(O)[C@@H]1OC12[C@@H](CO[Si](C)(C)C(C)(C)C)O[C@@H](n1cc(C)c(=O)[nH]c1=O)[C@@H]2O[Si](C)(C)C(C)(C)C | - | MRC-5 | plaque count | 12 µM
c1ccc(CSc2ccccn2)cc1 | - | HEL | cytopathic effect | >50 µg/mL
Nc1nc(Cl)c2ncn([C@@H](CCO)SCCO)c2n1 | - | HFF | cytopathic effect | >200 µM
Cc1nc(N2CCOC[C@@H]2C)nc(-n2ccnc2)c1[N+](=O)[O-] | - | - | plaque count | <0.4 µM
Cc1cc(N2CCCC2)c2ncc(CSCCc3ccccc3)n2c1 | DAVIS | - | plaque count | 20 µg/mL
N/C(=N\O)c1cc(O)c(O)c(O)c1 | - | - | plaque count | 7.1 µM
Cc1cn([C@H]2C[C@H](O[Si](C)(C)C(C)(C)C)[C@@H](/C=C/C#N)O2)c(=O)[nH]c1=O | DAVIS | HeLa | - | 10–20 µM
Cc1nc(N[C@H]2CCOC[C@@H]2C)nc(-n2ccnc2)c1[N+](=O)[O-] | - | - | - | 0.15 µM
OC[C@H]1O[C@@H](n2c(Br)nc3cc(Cl)c(Cl)cc32)[C@H](O)[C@@H]1O | AD169 | - | plaque count | 0.5 µM
Clc1ccc(CSc2ccccn2)cc1 | - | HEL | cytopathic effect | 0.31 µg/mL
Cc1nc(N2CCC[C@H]2COC(C)C)nc(-n2ccnc2)c1[N+](=O)[O-] | - | - | plaque count | <0.6 µM
Cc1cn(C(CCO)SCCO)c(=O)[nH]c1=O | - | HFF | cytopathic effect | >200 µM
N#Cc1ccc(CS(=O)(=O)c2cccc[n+]2[O-])cc1 | - | HEL | cytopathic effect | >20 µg/mL
CC(C)(C)[Si](C)(C)OC[C@H]1O[C@@H](n2ccc(=O)[nH]c2=O)[C@H](O[Si](C)(C)C(C)(C)C)[C@@]12O[C@H]2C(=O)NO | - | MRC-5 | plaque count | 24 µM
Nc1ncnc2c1ncn2[C@@H]1O[C@H](CO)[C@](O)(C(F)(F)F)[C@H]1O | AD169 | VERO | cytopathic effect | >50 µg/mL
Nc1nc2c(ncn2COCCO)c(=O)[nH]1 | AD169 | HEL | cytopathic effect | 70 µg/mL
c1ccc(COc2cccnc2SCc2ccccc2)cc1 | - | HEL | cytopathic effect | >2 µg/mL
Nc1nc(=O)n([C@@H]2O[C@H](CO)[C@@H](O)[C@@H]2F)cc1I | AD169 | HEL | plaque count | 0.8 µg/mL
COc1cc(CS(=O)c2cccc[n+]2[O-])cc(OC)c1OC | - | HEL | cytopathic effect | >50 µg/mL
O=C(CCCCCCCCC(=O)Nc1cc(S(=O)(=O)O)cc2cc(S(=O)(=O)O)cc(O)c12)Nc1cc(S(=O)(=O)O)cc2cc(S(=O)(=O)O)cc(O)c12 | Isolate T-156 | MRC-5 | plaque count | 48 µM
CCCCCCCCCCCC(c1cc(C)ccc1C)S(=O)(=O)c1cccc[n+]1[O-] | - | HEL | cytopathic effect | 0.56 µg/mL
NC1=NC2C(C=CN2CC(CO)CCO)C(=O)N1 | - | - | - | 10–100 µM
Cc1ccccc1C(Sc1cccc[n+]1[O-])C(N)=O | - | HEL | cytopathic effect | >50 µg/mL
Nc1nc2c(ncn2CC(CO)OCP(=O)(O)O)c(=O)[nH]1 | DAVIS | HEL | plaque count | 0.2 µg/mL
O=C(O)c1ccc(CS(=O)(=O)c2cccc[n+]2[O-])cc1 | - | HEL | cytopathic effect | >50 µg/mL
CCC[C@]1(CC(=O)O)OCCc2c1[nH]c1c(C)ccc(C#N)c21 | AD169 | VERO | ELISA | >100 µM
Cc1cc[n+]([O-])c(S(=O)(=O)Cc2ccc(Cl)cc2)c1 | - | HEL | cytopathic effect | >5 µg/mL
CC(C)(C)[Si](C)(C)OC[C@H]1O[C@@H](n2ccc(=O)[nH]c2=O)[C@H](O[Si](C)(C)C(C)(C)C)[C@]12O[C@@H]2CO | - | MRC-5 | plaque count | >5 µM

4 of the rows above, restated:

structure	strain	cell line	read by	value
Cc1nc(N[C@H]2CCOC[C@@H]2C)nc(-n2ccnc2)c1[N+](=O)[O-]	-	-	-	0.15 µM
O=S(=O)(Cc1ccccc1I)c1cccc[n+]1[O-]	-	HEL	cytopathic effect	>20 µg/mL
c1ccc(CSc2ccccn2)cc1	-	HEL	cytopathic effect	>50 µg/mL
N/C(=N\O)c1cc(O)c(O)c(O)c1	-	-	plaque count	7.1 µM